Measured values from several laboratories, pooled; numbers as filed in NIAID ChemDB.

Common to all: tests in culture; organism: Mycobacterium tuberculosis

MIC50, MIC90 and the like: level of inhibition, or share of isolates inhibited. Neighbouring rows are from separate reports. An empty or dashed field is not shown. Percent inhibition refers to the dose given; in toxicity tests it is the harm to the cells. MIC bound: limit read from a one-dose screen. ECn is the concentration giving n% inhibition of infection, replication or growth.

| SMILES | setting | read by | endpoint | cell line | strain or isolate | tested at | mutations | result |
|---|---|---|---|---|---|---|---|---|
| NNC(=O)c1ccncc1 | - | resazurin | MIC99 | - | H37Rv | - | INH resistant | 0.72 µg/mL |
| O=C(Nc1ccc(C(F)(F)F)cc1)c1cc(Br)ccc1OP(=O)(Oc1ccccc1)Oc1ccccc1 | 7 d | - | MIC | - | My 331/88 | - | - | 2 µM |
| CCC1CCC2(CC1)SCC(=O)N2NC(=O)Cc1csc2nc(-c3ccc(Cl)cc3)cn12 | - | - | EC50 | - | H37Rv | - | - | >6.25 µg/mL |
| Cc1ccc2nc(C)n3c4ccccc4nc3c2c1 | - | resazurin | MIC99 | - | H37Rv | - | INH resistant | 1.56 µg/mL |
| O=C(O)c1cccc2ccc3c(c12)Nc1ccccc1S3 | - | BACTEC | MIC bound | - | H37Rv | - | - | >12.5 µg/mL |
| COC(=O)c1cc2ccccc2nc1C1CCCCC1 | - | - | MIC | - | H37Rv | - | - | >6.25 µg/mL |
| Oc1ccc2[nH]c3cc4ccncc4cc3c2c1 | - | resazurin | MIC bound | - | H37Rv | - | - | >6.25 µg/mL |
| FC(F)(F)C(F)(F)c1nc2c(Cl)cc(Cl)cc2[nH]1 | - | - | MIC | - | My 331/88 | - | - | 32 µM |
| CO[C@H]1/C=C/O[C@@]2(C)Oc3c(C)c(O)c4c(O)c(c(/C=N/N5CCN(C)CC5)c(O)c4c3C2=O)NC(=O)/C(C)=C\C=C\[C@H](C)[C@H](O)[C@@H](C)[C@@H](O)[C@@H](C)[C@H](OC(C)=O)[C@@H]1C | - | - | MIC | - | 90-0241 (drug-susceptible) | - | - | 0.4 µg/mL |
| O=[N+]([O-])c1cc(CSc2nc3ccccc3[nH]2)cc([N+](=O)[O-])c1 | - | - | MIC | - | My 331/88 | - | - | 4 µM |
| Cc1nc2ccccc2c2nc3ccccc3n12 | - | resazurin | MIC99 | - | H37Rv | - | INH resistant | 1.56 µg/mL |
| CC(C)(C)NC(=O)C1c2ccccc2CCN1c1cc2c(cc1[N+](=O)[O-])c(=O)c(C(=O)O)cn2C(C)(C)C | - | - | MIC | - | ATCC35801 | - | - | 6.34 µM |
| CC(NNC(=O)c1ccncc1)c1cccc(C(F)(F)F)c1 | - | - | MBC | - | Rifampicin-resistant | - | - | 12.5 µg/mL |
| COc1ccc(N2C(=O)C3c4[nH]c5ccc(C)cc5c4C4CCC(C(C)(C)C)CC4C3C2=O)cc1 | - | BACTEC | MIC bound | - | H37Rv | - | - | >12.5 µg/mL |
| O=C(NNCc1ccccc1F)c1ccncc1 | - | - | MIC | - | Ciprofloxacin-resistant | - | - | 0.78 µg/mL |
| O=C(O)c1cnc2ccccc2c1 | - | - | MIC | - | H37Rv | - | - | >6.25 µg/mL |
| CC[C@H]1OC(=O)[C@H](C)[C@@H](O[C@H]2C[C@@](C)(OC)[C@@H](O)[C@H](C)O2)[C@H](C)[C@@H](O[C@@H]2O[C@H](C)C[C@H](N(C)C)[C@H]2O)[C@](C)(OC)C[C@@H](C)C(=O)[C@H](C)[C@@H](O)[C@]1(C)O | - | - | MIC | - | 92-0492 MDR (INH RIF-resistant) | - | - | 10 µg/mL |
| COC(=O)c1cc(C2CCCC2)nc2c(C3CCCC3)cccc12 | - | - | inhibition | - | H37Rv | 6.25 µg/mL | - | 38% |
| CC1CN(c2cc3c(cc2F)c(=O)c(C(=O)O)cn3-c2ccc(F)cc2F)CC(C)O1 | - | - | MIC | - | ATCC35801 | - | - | 7.24 µM |
| CCCCCCCC(CC(=O)O)OC(=O)CC(CCCCCCC)OC1O[C@@H](C)[C@H](O)[C@@H](O)[C@H]1O[C@@H]1O[C@@H](C)[C@H](O)[C@@H](O)[C@H]1O | - | BACTEC | MIC | - | H37Rv | - | - | ≥12.5 µg/mL |
| CC1CCCC2(C1)SC(C)C(=O)N2NC(=O)Cc1csc2nc(-c3ccccc3)cn12.O | - | - | MIC | - | H37Rv | - | - | <6.25 µg/mL |
| O=C(Nc1ccccc1)c1ccccc1OP(=O)(OCc1ccccc1)OCc1ccccc1 | 7 d | - | MIC | - | My 331/88 | - | - | 125 µM |
| NCC[C@H](O)C(=O)N[C@@H]1C[C@H](N)[C@@H](O[C@H]2O[C@H](CN)[C@@H](O)[C@H](O)[C@H]2O)[C@H](O)[C@H]1O[C@H]1O[C@H](CO)[C@@H](O)[C@H](N)[C@H]1O | - | - | MIC | - | 90-0233 (INH SM-RS) | - | - | 0.5 µg/mL |
| CCOC(=O)Cc1cc(C2CCCC2)nc2ccccc12 | - | - | inhibition | - | H37Rv | 6.25 µg/mL | - | 63% |
| O=C(Nc1ccccc1)c1ccccc1OP(=O)(c1ccccc1)c1ccccc1 | 14 d | - | MIC | - | My 331/88 | - | - | 125 µM |
| CN1CCN(c2cc3c(cc2F)c(=O)c(C(=O)O)cn3C(C)(C)C)CC1c1ccccc1 | - | - | MIC | - | ATCC35801 | - | - | 1.78 µM |
| O=C(Cc1csc2nc(-c3ccccc3)cn12)NN=C1CCCCC1 | - | - | inhibition | - | H37Rv | 6.25 µg/mL | - | 47% |
| CCCCCSc1nc2ccccc2[nH]1 | - | - | MIC | - | My 331/88 | - | - | 125 µM |
| C/C(=N\NC(=O)c1ccncc1)c1ccccc1 | - | - | MIC | - | Isoniazid-resistant | - | - | >3.2 µg/mL |
| FC(F)(F)c1cc(CSc2nc3ccccc3[nH]2)cc(C(F)(F)F)c1 | - | - | MIC | - | My 331/88 | - | - | >62 µM |
| O=c1c2sc3ccccc3sc=2c(=O)c2c(Cl)c(Cl)c(Cl)c(Cl)c12 | - | BACTEC | inhibition | - | H37Rv | 6.25 µg/mL | - | 34% |
| Brc1ccc(CSc2nc3ccccc3[nH]2)cc1 | - | - | MIC | - | My 331/88 | - | - | >32 µM |
| CCCc1nc2ccccc2c2nc3ccccc3n12 | - | resazurin | MIC99 | - | H37Rv | - | - | 0.78 µg/mL |
| O=C(O)c1cc(C2C3CC4CC(C3)CC2C4)nc2ccccc12 | - | - | inhibition | - | H37Rv | 6.25 µg/mL | - | 3% |
| O=c1cc(C(F)(F)F)[nH]c2c3ncccc3c3nc4ccccc4nc3c12 | - | BACTEC | inhibition | - | H37Rv | 12.5 µg/mL | - | 16% |
| O=[N+]([O-])c1cc(Sc2nc3ccc(I)cc3[nH]2)cc([N+](=O)[O-])c1 | - | - | MIC | - | My 331/88 | - | - | 2 µM |
| C/C(=N\NC(=O)c1ccncc1)c1ccc(F)cc1 | inside macrophages | colony count | EC90 | Macrophages | Erdman | - | - | 0.038 µg/mL |
| CCCCc1nc2ccc(F)cc2c2nc3ccccc3n12 | - | resazurin | MIC99 | - | H37Rv | - | - | 12.5 µg/mL |
| CCC1CCC2(CC1)SC(C)C(=O)N2NC(=O)Cc1csc2nc(-c3ccccc3)cn12.O.O | - | - | EC50 | VERO | H37Rv | - | - | <6.25 µg/mL |
| FC(F)(F)C(F)(F)C(F)(F)c1nc2c(Cl)cc(Cl)cc2[nH]1 | - | - | MIC | - | My 331/88 | - | - | 8 µM |
| CC(C)(C)n1cc(C(=O)O)c(=O)c2cc(F)c(N3CCN(C(=O)C4COc5ccccc5O4)CC3)cc21 | - | - | MIC | - | ATCC35801 | - | - | 3.06 µM |
| O=[N+]([O-])c1ccc(Sc2nc3c(Br)c(Br)c(Br)c(Br)c3[nH]2)cc1 | - | - | MIC | - | My 331/88 | - | - | 16 µM |
| O=C(Nc1ccc(C(F)(F)F)cc1)c1cc(Cl)ccc1OP(=O)(c1ccccc1)c1ccccc1 | 14 d | - | MIC | - | Praha 1 | - | - | 1 µM |
| O=C(N/N=C/c1ccccc1F)c1ccncc1 | - | - | MIC | - | Isoniazid-resistant | - | - | >1.6 µg/mL |
| CC1CCCC2(C1)SCC(=O)N2NC(=O)Cc1csc2nc(-c3ccccc3)cn12.O | - | - | EC50 | - | H37Rv | - | - | <6.25 µg/mL |
| CC[C@H]1OC(=O)[C@H](C)[C@@H](O[C@H]2C[C@@](C)(OC)[C@@H](OC(C)=O)[C@H](C)O2)[C@H](C)[C@@H](O[C@@H]2O[C@H](C)C[C@H](N(C)C)[C@H]2O)C(C)(O)C[C@@H](C)/C(=N\OCCCC2CCCCC2)[C@H](C)[C@@H](O)[C@]1(C)O | - | - | MIC | - | 5 | - | - | 3.13 µg/mL |
| O.O=C(Cc1csc2nc(-c3ccccc3)cn12)NN1C(=O)CSC12CCCCC2 | - | - | EC50 | VERO | H37Rv | - | - | <6.25 µg/mL |
| O=C(Nc1ccc(Cl)c(Cl)c1)c1cc(Cl)ccc1OP(=O)(Oc1ccccc1)Oc1ccccc1 | 14 d | - | MIC | - | My 331/88 | - | - | 2 µM |
| [Na+].[O-]/N=N/c1cnc(-c2ccccc2)c(-c2ccccc2)n1 | - | BACTEC | MIC | - | H37Rv | - | - | ≥12.5 µg/mL |
| O=C(N/N=C/c1cccc(C(F)(F)F)c1)c1ccncc1 | inside macrophages | colony count | EC50 | Macrophages | Erdman | - | - | <0.047 µg/mL |
| CC(C)C(NC(=O)C1CCCN1C(=O)OCc1ccccc1)C(=O)NN | - | BACTEC | MIC bound | - | H37Rv | - | - | >12.5 µg/mL |
| FC(F)(F)C(F)(F)C(F)(F)c1nc2c(Br)c(Br)c(Br)c(Br)c2[nH]1 | - | - | MIC | - | My 331/88 | - | - | 4 µM |
| C/C(=N\NC(=O)c1ccncc1)c1ccccc1F | - | - | MBC | - | Rifampicin-resistant | - | - | 0.39 µg/mL |
| O=C(O)c1ccnc2ccccc12 | - | - | inhibition | - | H37Rv | 6.25 µg/mL | - | 6% |
| c1ccc(P2(c3ccccc3)=NSN=S=N2)cc1 | - | BACTEC | MIC bound | - | H37Rv | - | - | ≤128 µg/mL |
| CCc1cc(C(N)=S)ccn1 | - | - | MIC | - | 90-0145 (drug-susceptible) | - | - | 0.25 µg/mL |
| N#Cc1ccc(CSc2nc3ccccc3[nH]2)cc1 | - | - | MIC | - | My 331/88 | - | - | 32 µM |
| COc1cc(C2=N/C(=C\c3ccccc3O)C(=O)O2)cc(OC)c1OC | - | BACTEC | inhibition | - | H37Rv | 12.5 µg/mL | - | -14% |
| CC1CCC2(CC1)SCC(=O)N2NC(=O)Cc1csc2nc(-c3ccc(Cl)cc3)cn12 | - | - | EC50 | - | H37Rv | - | - | <6.25 µg/mL |
| CCOC(=O)Cn1sc2ncc([N+](=O)[O-])cc2c1=O | - | BACTEC | MIC bound | - | H37Rv | - | - | >12.5 µg/mL |
| CC(C)(C)n1cc(C(=O)O)c(=O)c2cc(F)c(N3CCSCC3)cc21 | - | - | MIC | - | ATCC35801 | - | - | 8.59 µM |
| O=C1c2cc(Cl)ccc2OP(=O)(c2ccccc2)N1c1ccc(C(F)(F)F)cc1 | 21 d | - | MIC | - | Praha 4 | - | - | 1 µM |
| COC(=O)c1ccc2c(C3CCCCC3)cccc2n1 | - | - | MIC | - | H37Rv | - | - | >6.25 µg/mL |
| O=C(NNCc1cccc(C(F)(F)F)c1)c1ccncc1 | - | - | MIC | - | H37Rv (ethambutol-resistant) | - | - | 1.95 µg/mL |
| COc1ccc(-c2c([O-])oc(-c3ccccc3)[n+]2C)cc1 | - | BACTEC | inhibition | - | H37Rv | 12.5 µg/mL | - | 22% |
| CC(C)(C)NC(=O)C1c2ccccc2CCN1c1cc2c(cc1[N+](=O)[O-])c(=O)c(C(=O)O)cn2C1CC1 | - | - | MIC | - | ATCC35801 | - | - | 3.27 µM |
| CC(=O)N[C@H]1[C@@H](O[C@@H]2O[C@H](C[C@@H](O)[C@H]3O[C@@H](n4ccc(=O)[nH]c4=O)[C@H](O)[C@@H]3O)[C@H](O)[C@H](O)[C@H]2NC(=O)/C=C/CC(C)C)O[C@H](CO)[C@@H](O)[C@@H]1O | - | BACTEC | MIC | - | H37Rv | - | - | 3.13 µg/mL |
| O=C(N/N=C/c1cccc(F)c1)c1ccncc1 | - | - | MIC | - | H37Rv (isoniazid-resistant) | - | - | >128 µg/mL |
| O=C1OC(=O)C2C1C(c1ccc(Cl)cc1)N1C3C(=O)OC(=O)C3C(c3ccc(Cl)cc3)N21 | - | BACTEC | MIC bound | - | H37Rv | - | - | >12.5 µg/mL |
| Clc1ccccc1CSc1nc2ccccc2[nH]1 | - | - | MIC | - | My 331/88 | - | - | >125 µM |
| CC1COc2c(N3CCN(C)CC3)c(F)cc3c(=O)c(C(=O)O)cn1c23 | - | - | MIC | - | 90-0233 (INH SM-RS) | - | - | 0.5 µg/mL |
| FC(F)(F)c1nc2cc(Cl)c(Cl)cc2[nH]1 | - | - | MIC | - | My 331/88 | - | - | 8 µM |
| NC1=C(Cl)C(=O)c2ccccc2C1=O | - | BACTEC | MIC | - | H37Rv | - | - | 3.13 µg/mL |
| O=[N+]([O-])c1ccc(Sc2nc3c(Br)cc(Br)cc3[nH]2)c([N+](=O)[O-])c1 | - | - | MIC | - | My 331/88 | - | - | 16 µM |
| COc1ccccc1N=N/C(=N\Nc1ccccc1OC)C(=O)Nc1ccccc1 | - | BACTEC | MIC | - | H37Rv | - | - | 12.5 µg/mL |
| O=C(O)c1cn(C2CC2)c2cc(N3CCN(C(c4ccccc4)c4ccc(Cl)cc4)CC3)c(F)cc2c1=O | - | - | MIC | - | ATCC35801 | - | - | 0.17 µM |
| O=C1c2cc(Br)ccc2OP(=O)(c2ccccc2)N1c1ccc(C(F)(F)F)cc1 | 14 d | - | MIC | - | 234/2005 | - | - | 1 µM |
| C=CCN(CC=C)CCNc1cc(C)nc(Nc2nc3ccc(Cl)cc3[nH]2)n1 | - | BACTEC | MIC bound | - | H37Rv | - | - | >6.25 µg/mL |
| S=c1[nH]c2ccccc2[nH]1 | - | - | MIC | - | My 331/88 | - | - | 1000 µM |
| CCCCNC(=S)S | - | - | MIC | - | H37Rv | - | - | >12.5 µg/mL |
| c1ccc(CSc2nc3ccccc3[nH]2)cc1 | - | - | MIC | - | My 331/88 | - | - | >250 µM |
| FC(F)(F)C(F)(F)c1nc2c(Br)c(Br)c(Br)c(Br)c2[nH]1 | - | - | MIC | - | My 331/88 | - | - | 16 µM |
| O=[N+]([O-])c1ccc(N/N=C/c2ccc(O)cc2O)nc1 | - | BACTEC | MIC bound | - | H37Rv | - | - | >12.5 µg/mL |
| CCC1CCC2(CC1)SCC(=O)N2NC(=O)Cc1csc2nc(-c3ccccc3)cn12 | - | - | inhibition | VERO | H37Rv | 6.25 µg/mL | - | 99% |
| C/C=C1\CN2CCC1CC2C(O)c1ccnc2ccc(OCCO)cc12.Cl.Cl | - | BACTEC | MIC | - | H37Rv | - | - | ≥128 µg/mL |
| O=[N+]([O-])c1ccc(CSc2nc3ccccc3[nH]2)cc1 | - | - | MIC | - | My 331/88 | - | - | >62 µM |